Experimental data: patent US20140086927A1 (priority 2012, published 2014)

System: HA of H3N2
Format: binding, Influenza A virus H3N2 (Aic68, Fuk85)

B1: F005-126: human IgG antibody broadly neutralizing H3N2 viruses; heavy chain SEQ ID NO: 2, light chain SEQ ID NO: 13 (antibody)
heavy: QVQLVQSGAEVKKPGASVTVSCQVSGYTLTSYGLSWVRQAPGQGLEWVGWINTYDGQTKYVKKFQGRVTMTTHTGTNTAYMEMKSLRSDDTAVYYCARVEGVRGVMGFHYYPMDVWGQGTMVTVSSASTKGPSVFPLAPSSKSTSGGTAALGCLVKDYFPEPVTVSWNSGALTSGVHTFPAVLQSSGLYSLSSVVTVPSSSLGTQTYICNVNHKPSNTKVDKKV[not shown - human IgG1 Fc with changes]
light: QSVLTQPPSVSGAPGQRVTISCTGSSSNIGAGYAVHWYQQLPGTAPKLLISGNSNRPSGVPDRFSGSKSGTSASLAITGLQAEDEADYYCQSYDSSLSGSVFGGGTKLTVLGQPKAAPSVTLFPPSSEELQANKATLVCLISDFYPGAVTVAWKADSSPVKAGVETTTPSKQSNNKYAASSYLSLTPEQWKSHRSYSCQVHEGSTVEKTVAPTECSARQ
reactivity to mutant Aic68HA/N285Y versus wild HA: weaker than that of wild HA
